Pooled drug test results. Numbers come from NIAID ChemDB, via PubChem.

Common to all: whole-cell or culture tests; organism: Rhinovirus; measure: inhibition

For "inactive" no cut-off is given. Rows are shuffled and stem from different studies. a–b is a range or a potency band. An empty or dashed field is not shown. Inhibition is in % at the dose shown (toxicity tests: loss of growth or viability).

Cc1cccc(N2CCN(c3ccc(Br)nn3)CC2)c1 ; strain or isolate: 100 serotypes ; dose: 16 µg/mL ; value: 71%
CN(C)c1nc(C(F)(F)F)nc2c1ncn2Cc1ccc(S(C)(=O)=O)cc1 ; strain or isolate: Serotype 30 ; cells: M-HELA ; method: plaque count ; dose: 8 µM ; value: 32%
N#Cc1cc([N+](=O)[O-])ccc1Oc1ccc(Cl)c(Cl)c1 ; strain or isolate: TYPE 1A ; cells: VERO ; dose: 0.78 µg/mL ; value: 44%
CC(=O)Oc1ccc(/C=C/C(=O)Oc2c(-c3ccc(Cl)c(Cl)c3)oc3ccccc3c2=O)cc1OC(C)=O ; strain or isolate: Serotype 14 ; cells: HeLa ; method: plaque count ; dose: 0.86 µM ; value: inactive
O=C(O)Cc1csc(/N=C2\SC[C@@H]3Cc4ccccc4CN23)n1 ; strain or isolate: Serotype 1B ; cells: MRC-5 ; method: cytopathic effect ; dose: 0.15 µg/mL ; value: 80–100%
O=C(O)c1cc(S(=O)(=O)[O-])ccc1O ; cells: Human amnion AV3 cells ; method: cytopathic effect ; dose: 10 µg/mL ; value: 0%
COc1cc(C(=O)Oc2c(-c3ccc(Cl)cc3)oc3ccccc3c2=O)ccc1OC(C)=O ; strain or isolate: Serotype 1B ; cells: HeLa ; method: plaque count ; dose: 14.22 µM ; value: inactive
COc1nc2c(N(C)C)nc(C(F)(F)F)nc2n1Cc1ccc(C)cc1 ; strain or isolate: TYPE 1B ; cells: M-HELA ; method: plaque count ; dose: 8 µg/mL ; value: 17%
O=C(/C=C(\O)c1ccccc1O)/C=C/c1ccc(O)cc1 ; strain or isolate: Serotype 1B ; cells: HeLa ; method: plaque count ; dose: 12.5 µM ; value: 36%
Cc1ccccc1Cn1cnc2c(N(C)C)nc(C(F)(F)F)nc21 ; strain or isolate: Serotype 19 ; cells: M-HELA ; method: plaque count ; dose: 8 µM ; value: 19%
O=C(/C=C(\O)c1ccccc1O)/C=C/c1ccc([N+](=O)[O-])cc1 ; strain or isolate: Serotype 1B ; cells: HeLa ; method: plaque count ; dose: 6.25 µM ; value: 25%
O=S(=O)([O-])c1cc(O)c2ccccc2c1 ; cells: Human amnion AV3 cells ; method: cytopathic effect ; dose: 10 µg/mL ; value: 0%
CCOc1cc(O)c(C(=O)/C=C/c2ccc(OC)cc2)c(OC)c1 ; strain or isolate: 17 serotypes ; dose: 0.269 µg/mL ; value: 53%
COc1cc(C(=O)Oc2c(-c3ccc(Cl)cc3)oc3ccccc3c2=O)cc(OC)c1OC(C)=O ; strain or isolate: Serotype 14 ; cells: HeLa ; method: plaque count ; dose: 1.56 µM ; value: 37%
CC(C)Oc1ccc(Cn2cnc3c(N(C)C)nc(C(F)(F)F)nc32)cc1 ; strain or isolate: Serotype 19 ; cells: M-HELA ; method: plaque count ; dose: 8 µM ; value: 33%
Cc1ccc(Cn2cnc3c(N(C)C)nc(C(F)(F)F)nc32)cc1 ; strain or isolate: TYPE 5 ; cells: M-HELA ; method: plaque count ; dose: 8 µM ; value: 18%
Fc1cccc(Cn2cnc3c(Nc4cccc(F)c4)nc(C(F)(F)F)nc32)c1 ; strain or isolate: Serotype 54 ; cells: M-HELA ; method: plaque count ; dose: 2.5 µM ; value: 27%
CN(C)c1nc(C(F)(F)F)nc2c1ncn2Cc1cccc(F)c1 ; strain or isolate: Serotype 19 ; cells: M-HELA ; method: plaque count ; dose: 8 µM ; value: 28%
CCN(c1cccc(F)c1)c1nc(C(F)(F)F)nc2c1ncn2Cc1cccc(F)c1 ; strain or isolate: Serotype 4 ; cells: M-HELA ; method: plaque count ; dose: 10 µM ; value: 38%
Cc1ccc(Cn2cnc3c(N(C)C)nc(C(F)(F)F)nc32)c(C)c1 ; strain or isolate: Serotype 13 ; cells: M-HELA ; method: plaque count ; dose: 8 µM ; value: 13%
O=S(=O)(O)c1cc(O)c2c(O)cc(S(=O)(=O)O)cc2c1 ; cells: Human embryonic lung cells ; method: cytopathic effect ; dose: 10 µg/mL ; value: 30%
Cc1cc(Cl)ccc1Cn1cnc2c(N(C)C)nc(C(F)(F)F)nc21 ; strain or isolate: Serotype 29 ; cells: M-HELA ; method: plaque count ; dose: 8 µM ; value: 32%
O=C(Oc1c(-c2ccc(Cl)cc2)oc2ccccc2c1=O)c1cc(OCc2ccccc2)c(OCc2ccccc2)c(OCc2ccccc2)c1 ; strain or isolate: Serotype 1B ; cells: HeLa ; method: plaque count ; dose: 1.36 µM ; value: inactive
O=C(/C=C(\O)c1ccccc1O)/C=C/c1ccc(Cl)cc1 ; strain or isolate: Serotype 14 ; cells: HeLa ; method: plaque count ; dose: 12.5 µM ; value: 26%
CCOC(=O)c1csc(N2CCN(Cc3cc(C)ccc3C)CC2)n1 ; strain or isolate: 100 serotypes ; dose: 2.8 µg/mL ; value: 53%
Cc1ccc(/C=C/c2cc(=O)c3ccccc3o2)cc1 ; strain or isolate: Serotype 14 ; cells: HeLa ; method: plaque count ; dose: 6.25 µM ; value: 10%
O=S(=O)(O)c1ccc2cc(O)c(S(=O)(=O)O)cc2c1 ; cells: Human amnion AV3 cells ; method: cytopathic effect ; dose: 10 µg/mL ; value: 0%
Cc1ccc(Cn2cnc3c(N(C)C)nc(C(F)(F)F)nc32)cc1 ; strain or isolate: Serotype 4 ; cells: M-HELA ; method: plaque count ; dose: 2.5 µM ; value: 41%

Repeating the first 2 entries:

| compound | strain or isolate | cells | method | dose | value |
|---|---|---|---|---|---|
| Cc1cccc(N2CCN(c3ccc(Br)nn3)CC2)c1 | 100 serotypes | - | - | 16 µg/mL | 71% |
| CN(C)c1nc(C(F)(F)F)nc2c1ncn2Cc1ccc(S(C)(=O)=O)cc1 | Serotype 30 | M-HELA | plaque count | 8 µM | 32% |